Data set [1] has as its target rNaV1.4 (Rattus norvegicus, UniProt P15390). Nature of the data set: whole-cell patch clamp, inhibition of rNaV1.4 Na+ currents. Conditions: for NaV1.4 current remaining (not inhibited): 1 µM peptide, TSA201 cells, mean ± SEM, n = 7 (GIIIC), n = 4 (GIIIA); for IC50: read-out: IC50, inhibition of rNaV1.4-mediated Na+ currents, TSA201 cells transiently transfected, room temperature, Vh −120 mV, step to −10 mV, mean ± SEM, n = 6 (GIIIC), n = 5 (GIIIA).

Sequences of proteins named here, by UniProt entry; tags and fusion partners are left off.
UniProt P15390, whole entry, looked up: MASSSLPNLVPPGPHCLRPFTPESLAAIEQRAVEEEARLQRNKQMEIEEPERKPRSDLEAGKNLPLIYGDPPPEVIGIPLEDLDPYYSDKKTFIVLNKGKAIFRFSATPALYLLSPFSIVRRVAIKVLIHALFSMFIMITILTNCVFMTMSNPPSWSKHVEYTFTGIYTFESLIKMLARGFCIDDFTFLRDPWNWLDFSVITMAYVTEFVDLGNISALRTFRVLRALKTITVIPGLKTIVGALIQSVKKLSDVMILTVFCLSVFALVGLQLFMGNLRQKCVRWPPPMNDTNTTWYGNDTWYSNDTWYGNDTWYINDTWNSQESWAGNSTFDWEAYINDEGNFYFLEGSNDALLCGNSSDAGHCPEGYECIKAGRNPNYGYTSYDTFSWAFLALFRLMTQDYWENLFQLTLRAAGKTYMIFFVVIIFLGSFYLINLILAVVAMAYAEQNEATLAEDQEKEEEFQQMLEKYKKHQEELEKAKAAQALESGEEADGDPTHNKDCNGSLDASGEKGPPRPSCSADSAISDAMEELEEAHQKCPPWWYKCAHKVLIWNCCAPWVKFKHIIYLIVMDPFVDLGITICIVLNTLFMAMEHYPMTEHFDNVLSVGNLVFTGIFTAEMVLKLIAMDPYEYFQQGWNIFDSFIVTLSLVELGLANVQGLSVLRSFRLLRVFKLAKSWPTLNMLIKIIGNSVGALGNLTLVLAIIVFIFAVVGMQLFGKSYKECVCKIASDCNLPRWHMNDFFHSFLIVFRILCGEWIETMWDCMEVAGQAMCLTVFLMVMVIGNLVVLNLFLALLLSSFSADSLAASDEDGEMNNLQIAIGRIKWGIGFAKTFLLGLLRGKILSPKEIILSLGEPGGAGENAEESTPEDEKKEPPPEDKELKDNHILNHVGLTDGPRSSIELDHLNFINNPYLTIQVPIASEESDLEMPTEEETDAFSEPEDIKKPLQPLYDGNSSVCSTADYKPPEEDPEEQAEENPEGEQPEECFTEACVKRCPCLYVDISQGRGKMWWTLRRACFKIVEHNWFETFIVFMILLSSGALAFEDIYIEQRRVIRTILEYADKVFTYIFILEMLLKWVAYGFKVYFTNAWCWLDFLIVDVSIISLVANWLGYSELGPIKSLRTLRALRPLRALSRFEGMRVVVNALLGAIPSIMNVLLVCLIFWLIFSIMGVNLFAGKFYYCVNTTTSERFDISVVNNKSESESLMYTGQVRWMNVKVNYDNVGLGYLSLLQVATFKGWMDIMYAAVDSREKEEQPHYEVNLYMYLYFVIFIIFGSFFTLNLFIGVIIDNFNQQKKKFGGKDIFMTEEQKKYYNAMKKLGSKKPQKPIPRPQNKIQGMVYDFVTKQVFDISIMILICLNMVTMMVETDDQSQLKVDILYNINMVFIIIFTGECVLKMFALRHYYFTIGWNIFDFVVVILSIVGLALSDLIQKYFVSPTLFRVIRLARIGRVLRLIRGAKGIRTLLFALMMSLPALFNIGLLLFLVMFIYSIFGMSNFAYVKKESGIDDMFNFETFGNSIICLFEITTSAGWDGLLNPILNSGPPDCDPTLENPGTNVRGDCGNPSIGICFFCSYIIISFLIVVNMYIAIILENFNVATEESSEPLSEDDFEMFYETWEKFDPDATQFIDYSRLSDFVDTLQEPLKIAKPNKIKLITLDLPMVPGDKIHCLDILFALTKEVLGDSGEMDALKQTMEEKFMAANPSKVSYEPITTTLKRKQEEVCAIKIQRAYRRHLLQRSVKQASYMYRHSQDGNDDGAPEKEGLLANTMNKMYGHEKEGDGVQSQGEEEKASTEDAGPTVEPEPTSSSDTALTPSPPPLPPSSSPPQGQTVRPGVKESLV

The test system of data set [2] is NaV1.2, NaV1.4, NaV1.5, NaV1.6, NaV1.7 and NaV1.8. The data set is described as follows: NaV selectivity profile over the panel of VGSCs.

By IC50 is commonly meant the concentration at which inhibition is half-maximal. Turning to `C[C@H](NC(=O)[C@@H]1CSSC[C@@H]2NC(=O)[C@H](CCCCN)NC(=O)[C@H](CCCCN)NC(=O)[C@@H]3C[C@@H](O)CN3C(=O)[C@@H]3C[C@@H](O)CN3C(=O)[C@H]([C@@H](C)O)NC(=O)[C@@H]3CSSC[C@H](NC(=O)[C@H](CCCNC(=N)N)NC(=O)[C@H](CCC(N)=O)NC(=O)[C@@H]4C[C@@H](O)CN4C(=O)[C@H](CCCCN)NC(=O)[C@H](CSSC[C@H](NC(=O)[C@H](CC(=O)O)NC(=O)[C@@H](N)CCCNC(=N)N)C(=O)N3)NC(=O)[C@H](CCC(N)=O)NC(=O)[C@H](CCCNC(=N)N)NC(=O)[C@H](CC(=O)O)NC(=O)[C@H](CCCCN)NC2=O)C(=O)N1)C(N)=O`, in data set [1], the “NaV1.4 current remaining (not inhibited)” value was determined as 5 ± 3% and the IC50 was 110 nM.
As for `CC(C)C[C@@H]1NC(=O)[C@@H]2C[C@@H](O)CN2C(=O)[C@H](CCCCN)NC(=O)[C@@H]2CSSC[C@H](NC(=O)[C@H](CC(=O)O)NC(=O)[C@@H](N)CCCNC(=N)N)C(=O)N[C@H]3CSSC[C@H](NC(=O)[C@H](CCCCN)NC1=O)C(=O)N[C@H](C(=O)N[C@@H](C)C(N)=O)CSSC[C@H](NC(=O)[C@H](CCCCN)NC(=O)[C@H](CCCCN)NC(=O)[C@@H]1C[C@@H](O)CN1C(=O)[C@@H]1C[C@@H](O)CN1C(=O)[C@H]([C@@H](C)O)NC3=O)C(=O)N[C@@H](CCCCN)C(=O)N[C@@H](CC(=O)O)C(=O)N[C@@H](CCCNC(=N)N)C(=O)N[C@@H](CCCNC(=N)N)C(=O)N2`, the “NaV selectivity (in words)” value in data set [2] (selectivity towards skeletal muscle sodium channels, panel at 1 µM) was “substantial selectivity towards skeletal muscle sodium channels”. The “NaV selectivity profile compared to GIIIA (in words)” value in data set [2] (when compared to GIIIA) is reported as “same NaV selectivity profile”. For the same compound, in data set [1], the “NaV1.4 current remaining (not inhibited)” value is given as 18 ± 2% and the IC50 worked out at 286 nM.

The values are drawn from publication PMC6222493, “NMR Structure of μ-Conotoxin GIIIC: Leucine 18 Induces Local Repacking of the N-Terminus Resulting in Reduced NaV Channel Potency” (2018).
